The match of structure and compound is tentative.
Target: Human CCR5 receptor (Homo sapiens, UniProt P51681)
Test: Human CCR5 receptor-ligand binding assay
Details: read-out: CCR5 Binding IC50; CHO-Gα16-hCCR5 cells, 125I RANTES radioligand
Text: Human CCR5 receptor (Genebank ID: 29169292) was cloned into mammalian expression vector, pTarget (Promega). The construct was transfected into CHO-Gα16 cells by using Fugene Reagent (Roche). Clones were selected under antibiotic pressure (G418 and Hygromycin) and sorted 4 times with a fluorescence activates cell sorter and a monoclonal antibody specific for CCR5 receptor (BD Biosciences Pharmigen, Mab 2D7, Cat. No. 555993). The clone with highest expression (100,000 copies per cell) was chosen for the binding assays.
Adherent cells in […] tissue culture flask (˜90% confluent) were harvested using 1 mM EDTA in PBS (phosphate-buffered saline) without Ca^2+ and Mg^2+. Cells were washed twice with PBS containing no Ca^2+ and Mg^2+. […]
After incubation, the cells were harvested onto GF/C filter plates using Packard cell harvester. […] Plates were dried in oven (70° C.) for 20 min, added with 40 μl scintillation fluid and sealed with Packard TopSeal-A. Packard Top Count was used to measure of the radioactivity for 1 min per well.
Total binding was determined with control wells added with radioisotope and buffer and the non-specific binding was determined using an excess cold RANTES to some of the control wells. Specific binding was determined by subtracting the non-specific form total binding. Results are expressed as the percentage of specific ^125I RANTES binding. […]

Sequences of proteins named here, by UniProt entry; tags and fusion partners are left off.
UniProt P51681, whole entry: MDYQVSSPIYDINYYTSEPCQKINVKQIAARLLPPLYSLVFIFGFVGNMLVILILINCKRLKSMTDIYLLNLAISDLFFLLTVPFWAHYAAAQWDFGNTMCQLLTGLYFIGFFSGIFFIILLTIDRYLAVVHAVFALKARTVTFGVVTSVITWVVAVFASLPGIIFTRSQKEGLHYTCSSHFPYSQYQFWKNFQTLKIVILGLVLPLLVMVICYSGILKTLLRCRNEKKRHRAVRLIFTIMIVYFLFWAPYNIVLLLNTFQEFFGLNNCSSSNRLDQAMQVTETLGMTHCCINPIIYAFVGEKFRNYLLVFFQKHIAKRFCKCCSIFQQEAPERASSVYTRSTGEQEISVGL

Compound: CNC(=O)N1CCC(CN2C[C@@H](c3ccccc3)N(C3CCN(C4(C)CCN(C(=O)c5c(C)ncnc5C)CC4)CC3)C2=O)CC1
- IC50: 31.8 nM

Source: patent US20090028818A1, “Heterocyclic antiviral compounds” (Roche Palo Alto LLC, priority 2007, published 2009)
